Assay results taken from patent US9505834B2, “Methods for controlling the galactosylation profile of recombinantly-expressed proteins” (AbbVie Inc., priority 2011, dated 2016).

Test system: adalimumab-producing CHO cell line
Assay: Example 1 culture growth & productivity, batch shake flasks
Format: cell-based, Chinese Hamster
Settings: manganese chloride 100 μM, galactose 0 to 100 mM
Experimental: All supernatants were stored at −80° C. until analysis. […] Culture growth, productivity, and product quality data for control cultures is the average of the 3 experiments.

Manganese (II) Chloride [manganese chloride]
culture growth and viability: growth lag and decreased viability for the first 4 production days
